Source: patent US9745335B2 (Blirt S.A., priority 2012, dated 2017)

Test system: Human erythrocytes
Experiment: hemotoxicity determination (hemolytic activity)
Assay type: cell-based
Settings: for WS EH50/IC50 (selectivity coefficient): EH50 divided by antifungal IC50; for WE WS(z)/WS(AmB) (effectivity factor): selectivity coefficient of derivative relative to native antibiotic
Description: The hemotoxicity determination was carried out by the serial dilutions method, according to the procedure described earlier (Slisz, M., et al., E., J Antibiot 57: 669-678 (2004). Human erythrocytes were suspended in the solution of saline to obtain a cell density of suspension 2×10^7/ml. Suitable amounts of diluted solutions of compounds were added to the cell suspension in tubes and were incubated at 37° C. for 30 minutes and then centrifuged (1700×g, 10 min, 4° C.). The concentration of hemoglobin in supernatant after centrifugation of erythrocytes suspension were determined by measuring the absorbance at wavelength λ=540 nm (A540). The maximum level of hemolysis was obtained after incubation of cells suspension in the presence of 0.1% Tritone X-100 (control sample). […] From these graphs, the EH50 values were read which are the interpolated concentrations of compound, for which the A540 value is exactly 50% of the A540 value measured for the control sample.

`C[C@@H]1[C@H](O)[C@@H](C)/C=C/C=C/C=C/C=C/C=C/C=C/C=C/[C@H](O[C@@H]2O[C@H](C)[C@@H](O)[C@H](NC(=O)[C@@H](N)CSC(C)(C)C)[C@@H]2O)C[C@@H]2O[C@](O)(C[C@@H](O)C[C@@H](O)[C@H](O)CC[C@@H](O)C[C@@H](O)CC(=O)O[C@H]1C)C[C@H](O)[C@H]2C(=O)O` [Compound A37, N-L-(S-tert-butyl)cystylamphotericin B] was tested, and the “WS EH50/IC50 (selectivity coefficient)” value was >78.12 and the “WE WS(z)/WS(AmB) (effectivity factor)” value was >4.40.
With `C[C@@H]1[C@H](O)[C@@H](C)/C=C/C=C/C=C/C=C/C=C/C=C/C=C/[C@H](O[C@@H]2O[C@H](C)[C@@H](O)[C@H](NCc3ccc(C(C)(C)C)cc3)[C@@H]2O)C[C@@H]2O[C@](O)(C[C@@H](O)C[C@@H](O)[C@H](O)CC[C@@H](O)C[C@@H](O)CC(=O)O[C@H]1C)C[C@H](O)[C@H]2C(=O)O` [Compound A21, N-(4-tert-butylbenzyl)amphotericin B] the “WS EH50/IC50 (selectivity coefficient)” value was >63.29 and the “WE WS(z)/WS(AmB) (effectivity factor)” value was >3.56.
With `C[C@@H]1[C@H](O)[C@@H](C)/C=C/C=C/C=C/C=C/C=C/C=C/C=C/[C@H](O[C@@H]2O[C@H](C)[C@@H](O)[C@H](NC(=S)NCCN(C)C)[C@@H]2O)C[C@@H]2O[C@](O)(C[C@@H](O)C[C@@H](O)[C@H](O)CC[C@@H](O)C[C@@H](O)CC(=O)O[C@H]1C)C[C@H](O)[C@H]2C(=O)O` [Compound A28, N-{3-[2-(N,N-dimethylamino)ethyl]thioureidyl}amphotericin B] the “WS EH50/IC50 (selectivity coefficient)” value was 163.46 and the “WE WS(z)/WS(AmB) (effectivity factor)” value was 9.20.
In the case of `CCN(CC)CCNC(=S)N[C@@H]1[C@H](O)[C@H](O[C@H]2/C=C/C=C/C=C/C=C/C=C/C=C/C=C/[C@H](C)[C@@H](O)[C@@H](C)[C@H](C)OC(=O)C[C@H](O)C[C@H](O)CC[C@@H](O)[C@H](O)C[C@H](O)C[C@]3(O)C[C@H](O)[C@@H](C(=O)O)[C@H](C2)O3)O[C@H](C)[C@H]1O` [Compound A25, N-{3-[2-(N,N-diethylamino)ethyl]thioureidyl}amphotericin B], the “WS EH50/IC50 (selectivity coefficient)” value is reported as >117.65 and the “WE WS(z)/WS(AmB) (effectivity factor)” value is reported as >6.62.
In the case of `C[C@@H]1[C@H](O)[C@@H](C)/C=C/C=C/C=C/C=C/C=C/C=C/C=C/[C@H](O[C@@H]2O[C@H](C)[C@@H](O)[C@H](NC(=S)Nc3ccccc3)[C@@H]2O)C[C@@H]2O[C@](O)(C[C@@H](O)C[C@@H](O)[C@H](O)CC[C@@H](O)C[C@@H](O)CC(=O)O[C@H]1C)C[C@H](O)[C@H]2C(=O)O` [Compound A23, N-[(3-phenyl)-thioureidyl]amphotericin B], the “WS EH50/IC50 (selectivity coefficient)” value is reported as >39.37 and the “WE WS(z)/WS(AmB) (effectivity factor)” value is reported as >2.22.
With `C[C@@H]1[C@H](O)[C@@H](C)/C=C/C=C/C=C/C=C/C=C/C=C/C=C/[C@H](O[C@@H]2O[C@H](C)[C@@H](O)[C@H](NC(=S)NCCN3CCCC3)[C@@H]2O)C[C@@H]2O[C@](O)(C[C@@H](O)C[C@@H](O)[C@H](O)CC[C@@H](O)C[C@@H](O)CC(=O)O[C@H]1C)C[C@H](O)[C@H]2C(=O)O` [Compound A27, N-{[3-(2-pyrrolidin-1-yl)ethyl]thioureidyl}amphotericin B] the “WS EH50/IC50 (selectivity coefficient)” value was >133.33 and the “WE WS(z)/WS(AmB) (effectivity factor)” value was >7.51.
In the case of “N-D-β-naphtylalanylamphotericin B [Compound A32]”, the “WS EH50/IC50 (selectivity coefficient)” value is reported as >33.22 and the “WE WS(z)/WS(AmB) (effectivity factor)” value is reported as >1.87.
`C[C@@H]1[C@H](O)[C@@H](C)/C=C/C=C/C=C/C=C/C=C/C=C/C=C/[C@H](O[C@@H]2O[C@H](C)[C@@H](O)[C@H](NC3CC(=O)N(c4ccc(Br)cc4)C3=O)[C@@H]2O)C[C@@H]2O[C@](O)(C[C@@H](O)C[C@@H](O)[C@H](O)CC[C@@H](O)C[C@@H](O)CC(=O)O[C@H]1C)C[C@H](O)[C@H]2C(=O)O` (stereo partly drawn) [Compound A3, N—[N-(4-bromophenyl)succinimidyl]amphotericin B] was tested, and the “WS EH50/IC50 (selectivity coefficient)” value was >35.09 and the “WE WS(z)/WS(AmB) (effectivity factor)” value was >1.97.
In the case of `C[C@@H]1[C@H](O)[C@@H](C)/C=C/C=C/C=C/C=C/C=C/C=C/C=C/[C@H](O[C@@H]2O[C@H](C)[C@@H](O)[C@H](NC3CC(=O)N(Cc4ccccc4)C3=O)[C@@H]2O)C[C@@H]2O[C@](O)(C[C@@H](O)C[C@@H](O)[C@H](O)CC[C@@H](O)C[C@@H](O)CC(=O)O[C@H]1C)C[C@H](O)[C@H]2C(=O)O` (stereo partly drawn) [Compound A2, N—(N-benzylsuccinimidyl)amphotericin B], the “WS EH50/IC50 (selectivity coefficient)” value is reported as >45.04 and the “WE WS(z)/WS(AmB) (effectivity factor)” value is reported as >2.54.
With `C[C@@H]1[C@H](O)[C@@H](C)/C=C/C=C/C=C/C=C/C=C/C=C/C=C/[C@H](O[C@@H]2O[C@H](C)[C@@H](O)[C@H](NC3CC(=O)N(c4ccccc4C(C)(C)C)C3=O)[C@@H]2O)C[C@@H]2O[C@](O)(C[C@@H](O)C[C@@H](O)[C@H](O)CC[C@@H](O)C[C@@H](O)CC(=O)O[C@H]1C)C[C@H](O)[C@H]2C(=O)O` (stereo partly drawn) [Compound A4, N—[N-(2-tert-butylophenyl)succinimidyl]amphotericin B] the “WS EH50/IC50 (selectivity coefficient)” value was >32.15 and the “WE WS(z)/WS(AmB) (effectivity factor)” value was >1.81.
`C[C@@H]1[C@H](O)[C@@H](C)/C=C/C=C/C=C/C=C/C=C/C=C/C=C/[C@H](O[C@@H]2O[C@H](C)[C@@H](O)[C@H](NC3CC(=O)N(c4ccc([N+](=O)[O-])cc4)C3=O)[C@@H]2O)C[C@@H]2O[C@](O)(C[C@@H](O)C[C@@H](O)[C@H](O)CC[C@@H](O)C[C@@H](O)CC(=O)O[C@H]1C)C[C@H](O)[C@H]2C(=O)O` (stereo partly drawn) [Compound A5, N—[N-(4-nitrophenyl)succinimidyl]amphotericin B] was tested, and the “WS EH50/IC50 (selectivity coefficient)” value was >51.55 and the “WE WS(z)/WS(AmB) (effectivity factor)” value was >2.90.
In the case of `C[C@@H]1[C@H](O)[C@@H](C)/C=C/C=C/C=C/C=C/C=C/C=C/C=C/[C@H](O[C@@H]2O[C@H](C)[C@@H](O)[C@H](NC(=O)C(N)Cc3ccccc3F)[C@@H]2O)C[C@@H]2O[C@](O)(C[C@@H](O)C[C@@H](O)[C@H](O)CC[C@@H](O)C[C@@H](O)CC(=O)O[C@H]1C)C[C@H](O)[C@H]2C(=O)O` (stereo partly drawn) [Compound A38, N-o-fluorophenylalanylamphotericin B], the “WS EH50/IC50 (selectivity coefficient)” value is reported as >52.08 and the “WE WS(z)/WS(AmB) (effectivity factor)” value is reported as >2.93.
For `C[C@@H]1[C@H](O)[C@@H](C)/C=C/C=C/C=C/C=C/C=C/C=C/C=C/[C@H](O[C@@H]2O[C@H](C)[C@@H](O)[C@H](NC(=O)[C@@H](N)Cc3ccc(I)cc3)[C@@H]2O)C[C@@H]2O[C@](O)(C[C@@H](O)C[C@@H](O)[C@H](O)CC[C@@H](O)C[C@@H](O)CC(=O)O[C@H]1C)C[C@H](O)[C@H]2C(=O)O` [Compound A31, N-L-p-iodophenylalanylamphotericin B], the “WS EH50/IC50 (selectivity coefficient)” value was >39.68 and the “WE WS(z)/WS(AmB) (effectivity factor)” value was >2.23.
For `C[C@@H]1[C@H](O)[C@@H](C)/C=C/C=C/C=C/C=C/C=C/C=C/C=C/[C@H](O[C@@H]2O[C@H](C)[C@@H](O)[C@H](NC3CC(=O)N(CCO)C3=O)[C@@H]2O)C[C@@H]2O[C@](O)(C[C@@H](O)C[C@@H](O)[C@H](O)CC[C@@H](O)C[C@@H](O)CC(=O)O[C@H]1C)C[C@H](O)[C@H]2C(=O)O` (stereo partly drawn) [Compound A8, N—[N-(2-hydroxyethyl)succinimidyl]amphotericin B], the “WS EH50/IC50 (selectivity coefficient)” value was >73.53 and the “WE WS(z)/WS(AmB) (effectivity factor)” value was >4.14.
In the case of “N-(4-N,N-diethylaminobenzyl)amphotericin B [Compound A19]”, the “WE WS(z)/WS(AmB) (effectivity factor)” value is reported as >10.62.
In the case of “N-(L-N,N-diethylphenylalanyl)amphotericin B [Compound A42]”, the “WE WS(z)/WS(AmB) (effectivity factor)” value is reported as >2.05.
With `C[C@@H]1[C@H](O)[C@@H](C)/C=C/C=C/C=C/C=C/C=C/C=C/C=C/[C@H](O[C@@H]2O[C@H](C)[C@@H](O)[C@H](NC(=S)Nc3cccnc3)[C@@H]2O)C[C@@H]2O[C@](O)(C[C@@H](O)C[C@@H](O)[C@H](O)CC[C@@H](O)C[C@@H](O)CC(=O)O[C@H]1C)C[C@H](O)[C@H]2C(=O)O` [Compound A26, N-[3-(pyridin-3-yl)thioureidyl]amphotericin B] the “WS EH50/IC50 (selectivity coefficient)” value was >39.21 and the “WE WS(z)/WS(AmB) (effectivity factor)” value was >2.21.
With `Cc1cc(C)c(N2C(=O)CC(N[C@@H]3[C@H](O)[C@H](O[C@H]4/C=C/C=C/C=C/C=C/C=C/C=C/C=C/[C@H](C)[C@@H](O)[C@@H](C)[C@H](C)OC(=O)C[C@H](O)C[C@H](O)CC[C@@H](O)[C@H](O)C[C@H](O)C[C@]5(O)C[C@H](O)[C@@H](C(=O)O)[C@H](C4)O5)O[C@H](C)[C@H]3O)C2=O)c(C)c1` (stereo partly drawn) [Compound A1, N—[N-(2,4,6-trimethylphenyl)succinimidyl]amphotericin B] the “WS EH50/IC50 (selectivity coefficient)” value was >102.04 and the “WE WS(z)/WS(AmB) (effectivity factor)” value was >5.74.
`C[C@@H]1[C@H](O)[C@@H](C)/C=C/C=C/C=C/C=C/C=C/C=C/C=C/[C@H](O[C@@H]2O[C@H](C)[C@@H](O)[C@H](NC(=O)[C@H](N)CC(=O)OC(C)(C)C)[C@@H]2O)C[C@@H]2O[C@](O)(C[C@@H](O)C[C@@H](O)[C@H](O)CC[C@@H](O)C[C@@H](O)CC(=O)O[C@H]1C)C[C@H](O)[C@H]2C(=O)O` [Compound A35, N-D-(O^β-tert-butyl)asparagylamphotericin B] was tested, and the “WS EH50/IC50 (selectivity coefficient)” value was >71.42 and the “WE WS(z)/WS(AmB) (effectivity factor)” value was >4.02.
`C[C@@H]1[C@H](O)[C@@H](C)/C=C/C=C/C=C/C=C/C=C/C=C/C=C/[C@H](O[C@@H]2O[C@H](C)[C@@H](O)[C@H](NC3CC(=O)N(CC(C)(C)CN(C)C)C3=O)[C@@H]2O)C[C@@H]2O[C@](O)(C[C@@H](O)C[C@@H](O)[C@H](O)CC[C@@H](O)C[C@@H](O)CC(=O)O[C@H]1C)C[C@H](O)[C@H]2C(=O)O` (stereo partly drawn) [Compound A7, N-{N-[3-(N,N-dimethylamino)-2,2-dimethylpropyl]succinimidyl}amphotericin B] was tested, and the “WS EH50/IC50 (selectivity coefficient)” value was >142.86 and the “WE WS(z)/WS(AmB) (effectivity factor)” value was >8.04.
With “N-(L-N,N-dimethylphenylalanyl)amphotericin B [Compound A43]” the “WE WS(z)/WS(AmB) (effectivity factor)” value was >3.94.
